Results as given in patent publication US4683230A, “BMY-28121, a new antitumor antibiotic” (Bristol-Myers Company, priority 1985, dated 1987).

Assays:
[1] = test system: aerobic gram-positive bacteria; test: In vitro antibacterial activity, aerobic gram-positive bacteria (summary); format: cell-based; details: all tested, incl. aminoglycoside or penicillin-resistant staphylococci
anaerobic bacteria = test: In vitro antibacterial activity, anaerobic bacteria (summary); format: cell-based; details: gram-positive and negative, incl. clindamycin-resistant C. difficile and clindamycin or ampicillin-resistant B. fragilis

## COc1cccc2c1N[C@H](O)[C@@H]1CC(/C=C/C(=O)N(C)C)=CN1C2=O [BMY-28121A]
[1]
  susceptibility of aerobic gram-positive bacteria: moderately susceptible
Anaerobic bacteria
  inhibition of anaerobic bacteria: inhibited all
